Legend:
MOW15–22 RBD-hFc [1] = target: T1, MOW15–22 RBD-hFc (MOW15–22 (bat MERSr-CoV sampled in …)); experiment: BLI; apparent KD
MOW15–22 RBD-hFc [2] = target: T1, MOW15–22 RBD-hFc; experiment: BLI

| Binder | Kd (MOW15–22 RBD-hFc [1]) | koff (MOW15–22 RBD-hFc [2]) |
| --- | --- | --- |
| soluble dimeric P.nat.M2 ACE2 ectodomain (twin-strep-3×FLAG) (domain or fragment) QSLTTEEKAREFLDKFNSEAENWSHESALASWDYNTNINDKNAQKMNEADSKWSAFYKEHSKLAQGFPLQEIQNSTIKLQLQILQQNGSSVLTAEKSKRLSTILTTMSTIYSTGKVCNPNNPQQCFTLSGLEDIMEKSKDYHQRLWIWEGWRSEVGKQLRPLYEEYVALKNEMARGNNYKDYGDYWRGDYETEGGDGYNYSRNHLIEDVDRIFLEIKPLYEQLHAYVRAKLMNAYPSRISPTGCLPAHLLGDMWGRFWTNLYNLTVPFEKKQNIDVTDTMKKQSWDAEKIFKEAEKFYLSVGLHNMTPEFWNNSMLTEPSDGRQVVCHPTAWDLGKNDFRIKMCTKVTMDDFLTAHHEMGHIQYDMAYAKQPYLLRNGANEGFHEAVGEIMSLSAATPKHLKDLGLLAQNYPEDYETEINFLLKQALNIVGTLPFTYMLEKWRWMVFEGKIPKEQWMEKWWEMKREIVGVVEPLPHDETYCDPASLFHVANDYSFIRYFTRTILEFQFQEALCQIANHTGPLHKCDISNSTEAGKQLKNMLELGKSKPWTFALEQIARTKEMDAKPLLNYFKPLFSWLKELNGNSVGWSADWSPYSEQSIKVRISLKSALGEKAYEWNDNEMYLFRSSVAYAMRVYFLKVKNETIPFRAEDVWVSDEKIRVSFKFFVTSPTNVSDIIPRSEVEDAIRMSRGRINDAFRLDDKTLEFLGIQPTLGPPYQPPVT | 3.75 nM | 0.000246 s⁻¹ |
| soluble dimeric P.nat.M1 ACE2 ectodomain (twin-strep-3×FLAG) (domain or fragment) QSLTTEEKAREFLDKFNSEAENWSHESALASWDYNTNINDKNAQKMNEADSKWSAFYKEHSKLAQGFPLQEIQNSTIKLQLQILQQNGSSVLTAEKSKRLSTILTTMSTIYSTGKVCNPNNPQQCFTLSGLEDIMEKSKDYHQRLWIWEGWRSEVGKQLRPLYEEYVALKNEMARGNNYKDYGDYWRGDYETEGGDGYNYSRNHLIEDVDRIFLEIKPLYEQLHAYVRAKLMNAYPSRISPTGCLPAHLLGDMWGRFWTNLYNLTVPFEKKQNIDVTDTMKKQSWDAEKIFKEAEKFYLSVGLHNMTPEFWNNSMLTEPSDGRQVVCHPTAWDLGKNDFRIKMCTKVTMDDFLTAHHEMGHIQYDMAYAKQPYLLRNGANEGFHEAVGEIMSLSAATPKHLKDLGLLAQNYPEDYETEINFLLKQALNIVGTLPFTYMLEKWRWMVFEGKIPKEQWMEKWWEMKREIVGVVEPLPHDETYCDPASLFHVANDYSFIRYFTRTILEFQFQEALCQIANHTGPLHKCDISNSTEAGKQLKNMLELGKSKPWTFALEQIARTKEMDAKPLLNYFKPLFSWLKEQNGNSVGWSADWSPYSEQSIKVRISLKSALGEKAYEWNDNEMYLFRSSVAYAMRVYFLKVKNETIPFRAEDVWVSDEKIRVSFKFFVTSPTNVSDIIPRSEVEDAIRMSRGRINDAFRLDDKTLEFLGIQPTLGPPYQPPVT | 10.8 nM |  |
